Measured values from several laboratories, pooled; numbers as filed in NIAID ChemDB.

All rows: enzyme or target tests; agent: HIV-1; target: Reverse transcriptase; measure: IC50

An empty or dashed field is not shown. Conditions beyond the fields shown may differ between rows. Two numbers with a dash give a range or band. ICn is the concentration giving n% inhibition.

{"structure": "N#Cc1ccc2[nH]c(C(N)=O)c(S(=O)(=O)N3CCCC3)c2c1", "changes": "Y181C", "read by": "scintillation proximity", "result": ">10 µM"}
{"structure": "CCn1cc(C(=O)O)c(=O)c2cc(F)c(N3CCN(CN4C(=O)C(=Nc5ccc(S(=O)(=O)Nc6nc(C)cc(C)n6)cc5)c5cc(F)ccc54)C(C)C3)c(F)c21", "read by": "nucleotide incorporation / radiometric", "result": "20.2 µM"}
{"structure": "Cc1cn([C@H]2C=C[C@@H](CO)O2)c(=O)[nH]c1=O", "result": ">100 µM"}
{"structure": "Cc1ccc2c(c1)N(CC1CC1)C(=O)c1ccnnc1O2", "read by": "ELISA", "result": "<330 µM"}
{"structure": "CCOC(=O)c1[nH]c2ccc(Cl)cc2c1Sc1ccccc1N", "strain or isolate": "IIIB", "read by": "RT activity", "result": "6.5 µM"}
{"structure": "N#Cc1cc(Cl)cc(Oc2cc(Cl)cc(OCC(=O)Nc3ccc4nc[nH]c4c3)c2)c1", "read by": "nucleotide incorporation / radiometric", "result": "<20 µM"}
{"structure": "CC(C)=CCN1Cc2cccc3[nH]c(=S)n(c23)C[C@@H]1C", "strain or isolate": "LAI", "read by": "radiometric", "result": "2.1 µM"}
{"structure": "Cc1ccc2c(c1)N(CC(C)C)C(=O)c1ccnnc1O2", "read by": "ELISA", "result": "<330 µM"}
{"structure": "CCCN1C(=O)c2cc(Cl)nnc2N(CC)c2ccc(C)cc21", "result": ">330 µM"}
{"structure": "NC(=O)c1[nH]c2ccc(Cl)cc2c1S(=O)(=O)c1ccccc1", "strain or isolate": "IIIB", "read by": "RT activity", "result": "0.3 µM"}
{"structure": "COc1ccc2nc(C)cc(N/N=C/c3cc(OC)c(OC)c(OC)c3)c2c1", "read by": "nucleotide incorporation", "result": "0.06 µM"}
{"structure": "Cc1cc(C#N)cc(Cl)c1Oc1nc(NC2CCN(c3cccc(C(N)=O)c3)CC2)ncc1Br", "changes": "K103N/Y181C", "read by": "scintillation proximity", "result": "0.017 µM"}
{"structure": "O=C1c2c(O)cc(O)cc2O[C@]12c1c(cc(O)c3c1O[C@H](c1ccc(O)cc1)CC3)O[C@H]2c1ccc(O)cc1", "strain or isolate": "IIIB", "result": "42 µg/mL"}
{"structure": "O=[N+]([O-])c1ccccc1S(=O)(=O)c1ccccc1", "result": "9.5 µM"}
{"structure": "S=C(NCCc1ccccn1)Nc1ncccn1", "result": "33–330 µM"}
{"structure": "Nc1ccc2c(O)c(Br)c(S(=O)(=O)O)cc2c1Br", "result": "180 µM"}
{"structure": "CCCN1C(=O)c2ccnnc2N(CCC)c2ccccc21", "result": "<330 µM"}
{"structure": "COc1cc(/C=N/Nc2cc(C)nc3cc(C(F)(F)F)ccc23)cc(OC)c1OC", "read by": "nucleotide incorporation", "result": "1.32 µM"}
{"structure": "Cc1ccc(CC(=O)Nc2nc(-c3ccccc3)cs2)cc1", "read by": "RT activity / absorbance", "result": "49.3 µM"}
{"structure": "CCCN1C(=O)c2ccnnc2N(C2CC2)c2ccc(C)cc21", "result": ">330 µM"}
{"structure": "C=CS(=O)(=O)N1CCCC(NS(=O)(=O)c2c(C(N)=O)[nH]c3ccc(Br)cc23)C1", "strain or isolate": "BH10", "changes": "Y181C", "read by": "RT activity / radiometric", "result": "75.2 µM"}
{"structure": "COc1ccc(/C=N/Nc2cc(C)nc3ccc(OC)cc23)cc1", "read by": "nucleotide incorporation", "result": "0.91 µM"}
{"structure": "CC(C)N1c2ccccc2N(C)C(=O)c2cncnc21", "strain or isolate": "IIIB", "read by": "nucleotide incorporation / radiometric", "result": ">30 µM"}
{"structure": "N#Cc1cc(Cl)cc(Oc2cc(OCc3[nH]nc4nc(N5CC(N)C5)ccc34)ccc2Cl)c1", "read by": "nucleotide incorporation / radiometric", "result": "<20 µM"}
{"structure": "Cc1cn([C@H]2C[C@H](F)[C@@H](CO)O2)c(=S)[nH]c1=S", "result": ">10 µM"}
{"structure": "Cc1cc(C#N)cc(C)c1Nc1ccnc(NC2CCN(c3cccc(C(N)=O)c3)CC2)n1", "changes": "K103N/Y181C", "read by": "scintillation proximity", "result": "0.018 µM"}
{"structure": "NS(=O)(=O)c1ccc(NC(=O)COc2cccnc2-c2cccc3ccccc23)cc1", "read by": "RT activity / ELISA / absorbance", "result": ">277 µM"}
{"structure": "Cc1cn([C@H]2C[C@H](F)[C@@H](COP(=O)(O)OP(=O)(O)OP(=O)(O)O)O2)c(=O)[nH]c1=O", "strain or isolate": "IIIB", "read by": "nucleotide incorporation", "result": "0.123 µM"}
{"structure": "CCCN1C(=O)c2ccnnc2Oc2ccc(OC)cc21", "read by": "ELISA", "result": "~330 µM"}
{"structure": "CCN1c2ccccc2N(C)C(=O)c2cnc(C)nc21", "strain or isolate": "IIIB", "read by": "nucleotide incorporation / radiometric", "result": ">30 µM"}
{"structure": "COc1ccc2nc(N/N=C/c3ccc(F)cc3)cc(C)c2c1", "read by": "nucleotide incorporation", "result": "0.97 µM"}
{"structure": "NS(=O)(=O)c1ccc(NC(=O)c2ccccc2SSc2ccccc2C(=O)Nc2ccc(S(N)(=O)=O)cc2)cc1", "result": ">100 µM"}
{"structure": "N#Cc1cc(Cl)cc(Oc2cc(CCc3[nH]nc4ncccc34)ccc2Cl)c1", "read by": "nucleotide incorporation / radiometric", "result": "<20 µM"}
{"structure": "CN1C(=O)c2cncnc2N(C)c2ccccc21", "strain or isolate": "IIIB", "read by": "nucleotide incorporation / radiometric", "result": ">30 µM"}
{"structure": "CN(CC(N)=O)c1ccc2c(COc3ccc(Cl)c(Oc4cc(Cl)cc(C#N)c4)c3)[nH]nc2n1", "read by": "nucleotide incorporation / radiometric", "result": "<20 µM"}
{"structure": "Cc1cc(C#N)cc(Cl)c1Oc1ccnc(NC2CCN(c3cccc(C(N)=O)c3)CC2)n1", "changes": "K103N/Y181C", "read by": "scintillation proximity", "result": "0.006 µM"}
{"structure": "C=CCN1C(=O)c2cc(Cl)nnc2N(C2CC2)c2ccccc21", "result": "<330 µM"}
{"structure": "CCN1c2ncc(CCOc3ccc(C(=O)NC(C)(C)CC(=O)O)cc3C)cc2C(=O)N(C)c2cccnc21", "strain or isolate": "IIIB", "changes": "RT-K103N Y181C", "read by": "nucleotide incorporation / radiometric", "result": ">0.1 µM"}
{"structure": "C=C1CCC[C@H]2[C@](C)(CC3=C(O)C(=O)C=C(OC)C3=O)[C@@H](C)CC[C@]12C", "read by": "RT activity", "result": ">50 µg/mL"}
{"structure": "CC(C)N1c2ccccc2N(C)C(=O)c2cnn(C)c21", "strain or isolate": "IIIB", "read by": "nucleotide incorporation / radiometric", "result": ">30 µM"}
{"structure": "CCCN1c2ccc(C)cc2N(CC)C(=O)c2cc(Cl)nnc21", "result": ">330 µM"}
{"structure": "CC(=O)Nc1ccc(SSc2ccc(NC(C)=O)cc2C(N)=O)c(C(N)=O)c1", "result": ">100 µM"}
{"structure": "COC(=O)c1ccc(NC(=O)COc2cccnc2-c2cccc3ccccc23)c(Br)c1", "read by": "RT activity / ELISA / absorbance", "result": "43.3 µM"}
{"structure": "CCc1cc(NCc2cc(C)c(C)cc2OC)c(=O)[nH]c1C", "read by": "RT activity", "result": "0.01 µM"}
{"structure": "C/C(=C\\CC[C@@H](C)[C@H]1CC[C@@]2(C)C1=CC[C@H]1[C@@]3(C)CCC(=O)C(C)(C)[C@@H]3CC[C@@]12C)C(=O)O", "read by": "nucleotide incorporation / radiometric", "result": "12.2 µg/mL"}
{"structure": "COc1cccc(/C=N/Nc2cc(C)nc3ccc(OC)cc23)c1", "read by": "nucleotide incorporation", "result": "1.41 µM"}
{"structure": "Cc1cc(C)c2c(c1)N(CC(C)C)C(=O)c1ccnnc1O2", "read by": "ELISA", "result": "<330 µM"}
{"structure": "O=C1NCC(CCC2(C(F)(F)F)OC(=O)Nc3ccc(Cl)cc32)O1", "strain or isolate": "A17", "changes": "RT-K103N Y181C", "read by": "nucleotide incorporation", "result": "1.9 µM"}
{"structure": "CN1C(=O)c2ccnnc2N(C2CC2)c2ccccc21", "result": "<330 µM"}
{"structure": "CCN1c2ncc(CCOc3ccc(-c4cncnc4)cc3)cc2C(=O)N(C)c2cccnc21", "strain or isolate": "IIIB", "changes": "RT-K103N Y181C", "read by": "nucleotide incorporation / radiometric", "result": ">0.1 µM"}
{"structure": "COc1cc(C#N)cc(C)c1Oc1ccnc(NC2CCN(c3cccc(C(N)=O)c3)CC2)n1", "changes": "K103N/Y181C", "read by": "scintillation proximity", "result": "0.054 µM"}
{"structure": "N#Cc1ccc2c(Oc3ccccc3OCCn3ccc(=O)[nH]c3=O)cc(F)cc2c1", "read by": "RT activity / fluorescence", "result": "0.0048 µM"}
{"structure": "CCN1c2ccccc2N(c2ccccc2)C(=O)c2cnn(C)c21", "strain or isolate": "IIIB", "read by": "nucleotide incorporation / radiometric", "result": ">30 µM"}
{"structure": "Cc1ccccc1CC(=O)Nc1nc(-c2ccccc2)cs1", "read by": "RT activity / absorbance", "result": "69.3 µM"}
{"structure": "CC/C(=N\\Nc1cc(C)nc2ccccc12)n1c2ccccc2c2ccccc21", "read by": "nucleotide incorporation", "result": "1.47 µM"}
{"structure": "O=C(c1c(O)cc(O)cc1O)c1c(-c2ccc(O)cc2)oc2cc(O)c3c(c12)O[C@H](c1ccc(O)cc1)CC3", "strain or isolate": "IIIB", "result": "34 µg/mL"}
{"structure": "Cc1cc(C)c(Nc2ccnc(Nc3ccc(C#N)cc3)n2)c(C)c1", "strain or isolate": "IIIB", "result": "0.024 µM"}
{"structure": "COc1cc(C#N)cc(C)c1Oc1nc(NC2CCN(c3cccc(C(N)=O)c3)CC2)ncc1Br", "changes": "K103N/Y181C", "read by": "scintillation proximity", "result": "0.028 µM"}
{"structure": "CCN1C(=O)c2ccnnc2Oc2c(C)cc(C)cc21", "read by": "ELISA", "result": "<330 µM"}
{"structure": "CCN1c2ncc(CCOc3cccc4c3ccc[n+]4[O-])cc2C(=O)N(C)c2ccc(Cl)nc21", "changes": "RT-V106A", "read by": "nucleotide incorporation / radiometric", "result": "0.661 µM"}
{"structure": "CCN1c2ncc(CCOc3ccc(-c4ccc(O)c(C(=O)O)c4)cc3C)cc2C(=O)N(C)c2cccnc21", "strain or isolate": "IIIB", "read by": "nucleotide incorporation / radiometric", "result": "<0.05 µM"}
{"structure": "CC(C)Nc1cccnc1N1CCN(C(=O)c2cc3ccc(O)cc3[nH]2)CC1", "read by": "scintillation proximity", "result": "1.26 µM"}
{"structure": "CC(C)=CCCC(C)C1C(O)C/C(C)=C/C/C=C(/C=O)C1C=O", "read by": "radiometric", "result": "4.3 µg/mL"}
{"structure": "Cc1c(C(C#N)c2cccc(Cl)c2)nc(SC(C)C)[nH]c1=O", "read by": "nucleotide incorporation / fluorescence", "result": "0.002 µM"}
{"structure": "CCCN1c2ccc(C)cc2N(CC)C(=O)c2ccnnc21", "result": "<330 µM"}
{"structure": "CCN1c2ncc(CCOc3ccc(NC(C)=O)cc3C)cc2C(=O)N(C)c2cccnc21", "strain or isolate": "IIIB", "changes": "RT-K103N Y181C", "read by": "nucleotide incorporation / radiometric", "result": "0.05–0.1 µM"}
{"structure": "CCN1C(=O)c2ccnnc2Oc2ccc(C)cc21", "read by": "ELISA", "result": "<330 µM"}
{"structure": "O=C1Nc2ccc(Cl)cc2C(C#CC2CCCCC2)(C(F)(F)F)O1", "read by": "nucleotide incorporation", "result": "0.083 µM"}
{"structure": "O=C(O[C@@H]1O[C@H](CO)[C@@H](O)[C@H](O)[C@H]1O)c1cc(O)c(O)c(O)c1", "result": ">1000 µM"}
{"structure": "Cc1cnc(NC2CCN(c3cccc(C(N)=O)c3)CC2)nc1Oc1c(C)cc(C#N)cc1Cl", "changes": "K103N/Y181C", "read by": "scintillation proximity", "result": "0.02 µM"}
{"structure": "CCOC(=O)c1[nH]c2ccccc2c1S(=O)(=O)c1cc(Cl)ccc1N", "strain or isolate": "IIIB", "read by": "RT activity", "result": "3.5 µM"}
{"structure": "CC(C)=CCC/C(C)=C/Cc1c(O)cc(O)c(C/C=C(\\C)CCC=C(C)C)c1C(=O)c1c(O)cc(O)cc1O", "read by": "nucleotide incorporation / radiometric", "result": "23.9 µg/mL"}
{"structure": "CCCN1C(=O)c2cc(Cl)nnc2N(CCC)c2ccc(C)cc21", "result": ">330 µM"}
{"structure": "CC(C)(O/N=C(/C(=O)NCC=O)c1csc(N)n1)C(=O)O", "read by": "radiometric", "result": ">100 µg/mL"}
{"structure": "S=C(NCCc1ccccn1)Nc1ccncn1", "result": "3.3–33 µM"}

The first 7 rows once more:

| structure | strain or isolate | changes | read by | result |
|---|---|---|---|---|
| N#Cc1ccc2[nH]c(C(N)=O)c(S(=O)(=O)N3CCCC3)c2c1 | - | Y181C | scintillation proximity | >10 µM |
| CCn1cc(C(=O)O)c(=O)c2cc(F)c(N3CCN(CN4C(=O)C(=Nc5ccc(S(=O)(=O)Nc6nc(C)cc(C)n6)cc5)c5cc(F)ccc54)C(C)C3)c(F)c21 | - | - | nucleotide incorporation / radiometric | 20.2 µM |
| Cc1cn([C@H]2C=C[C@@H](CO)O2)c(=O)[nH]c1=O | - | - | - | >100 µM |
| Cc1ccc2c(c1)N(CC1CC1)C(=O)c1ccnnc1O2 | - | - | ELISA | <330 µM |
| CCOC(=O)c1[nH]c2ccc(Cl)cc2c1Sc1ccccc1N | IIIB | - | RT activity | 6.5 µM |
| N#Cc1cc(Cl)cc(Oc2cc(Cl)cc(OCC(=O)Nc3ccc4nc[nH]c4c3)c2)c1 | - | - | nucleotide incorporation / radiometric | <20 µM |
| CC(C)=CCN1Cc2cccc3[nH]c(=S)n(c23)C[C@@H]1C | LAI | - | radiometric | 2.1 µM |